Plain letter strings leave the end groups untold.
Experiment: general procedure: peptide synthesis; Cl-MPA Protide resin (LL)
Details: whole synthesis

Sequence | final HPLC purity
AFLIVGPFDWLKKNHKPTKHA | > 99%
DALIVGPFDWLKKNHKPTKHA | > 96%
DFAIVGPFDWLKKNHKPTKHA | > 98%
DFLAVGPFDWLKKNHKPTKHA | > 99%
DFLIAGPFDWLKKNHKPTKHA | > 99%
DFLIVAPFDWLKKNHKPTKHA | > 99%
DFLIVGAFDWLKKNHKPTKHA | > 99%
DFLIVGPADWLKKNHKPTKHA | > 99%
DFLIVGPFAWLKKNHKPTKHA | > 99%
DFLIVGPFDALKKNHKPTKHA | > 97%
DFLIVGPFDWAKKNHKPTKHA | > 99%
DFLIVGPFDWLAKNHKPTKHA | > 98%
DFLIVGPFDWLKANHKPTKHA | > 99%
DFLIVGPFDWLKKAHKPTKHA | > 97%
DFLIVGPFDWLKKNAKPTKHA | > 99%
DFLIVGPFDWLKKNHAPTKHA | > 99%
DFLIVGPFDWLKKNHKATKHA | > 98%
DFLIVGPFDWLKKNHKPAKHA | > 95%

Sequence | final HPLC purity
DFLIVGPFDWLKKNHKPT | > 99%
DFLIVGPFDWLKKNHKPTAHA | > 99%
DFLIVGPFDWLKKNHKPTK | > 98%
DFLIVGPFDWLKKNHKPTKAA | > 98%
DFLIVGPFDWLKKNHKPTKH | > 96%
DWLKKNHKPTKHA | > 98%
FDWLKKNHKPTKHA | > 97%
FLIVGPFDWLKKNHKPTKHA | > 97%
GPFDWLKKNHKPTKHA | > 96%
IVGPFDWLKKNHKPTKHA | > 99%
KDFLIVGPFDWLKKNHKPTKHA | > 97%
KNKDFLIVGPFDWLKKNHKPTKHA | > 99%
LIVGPFDWLKKNHKPTKHA | > 96%
LKKNHKPTKHA | > 98%
NKDFLIVGPFDWLKKNHKPTKHA | > 98%
PFDWLKKNHKPTKHA | > 99%
VGPFDWLKKNHKPTKHA | > 98%
WLKKNHKPTKHA | > 96%

Source: paper PMC8545107 (mBio, 2021)
